Anti-infective test results gathered from many reports (values: NIAID ChemDB through PubChem).

Common to all: enzyme or target tests

ICn is the concentration giving n% inhibition. Neighbouring rows are from separate reports. Percent inhibition refers to the dose given; in toxicity tests it is the harm to the cells. An empty or dashed field is not shown. Two numbers with a dash give a range or band.

SMILES	target	dose	strain	read-out	agent	value
CCCCC(C(=O)O)C(=O)N[C@H](C(=O)N1C[C@H](OCc2ccccc2)C[C@H]1C(=O)N[C@H](C=O)CC)C(C)C	NS3 protease			Ki	Hepatitis C virus	>100 µM
COC(=O)c1nc(-c2ccc(S(=O)(=O)Nc3ccccc3Oc3ccc(Cl)cc3Cl)cc2)[nH]c(=O)c1O	HCV polymerase			IC50	Hepatitis C virus	<50 µM
O=C(O)/C=C/c1ccc(NC(=O)C2(NC(=O)c3ccc4c(c3)nc(-c3ccco3)n4C3CCC3)CCCC2)cc1	NS5B polymerase			IC50	Hepatitis C virus	0.5–5 µM
Cc1cc(Cl)ccc1C(=O)N(c1cc(-c2ccccc2)sc1C(=O)O)C(C)C	NS3 ATPase			IC50	Hepatitis C virus	<5 µM
FC(F)(F)c1ccc(Oc2ccc(-c3cnc4c(-c5nn[nH]n5)cnn4c3C3CCCCC3)cc2)cc1	RNA-dependent RNA polymerase			IC50	Hepatitis C virus	1–10 µM
COc1nc(NCCCN2CCCC2=O)nc(Nc2ccc3[nH]ncc3c2)n1	DNA polymerase	1 µg/mL		inhibition	Hepatitis B virus	60%
O=C(O)/C=C/c1ccc(NC(=O)C2(NC(=O)c3ccc4c(c3)nc(-c3ccc(OCC(=O)NCCNC(=O)c5ccc(C(=O)c6ccccc6)cc5)cc3)n4C3CCCCC3)CCNCC2)cc1	NS5B polymerase			IC50	Hepatitis C virus	5–25 µM
CC[C@@H](C=O)NC(=O)[C@@H]1C[C@@H](NC(=O)C(=O)c2ccccc2)CN1C(=O)[C@@H](NC(=O)[C@@H](NC(=O)c1cnccn1)C(C)C)C(C)C	NS3 protease			Ki	Hepatitis C virus	1–100 µM
COc1ccc(-c2cc(-c3ccccc3)nc3cc(C(=O)O)nn23)cc1	RNA-dependent RNA polymerase			IC50	Hepatitis C virus	>10 µM
CCOC(=O)c1csc(CN(c2cc3oc(-c4ccc(F)cc4)c(C(=O)NC)c3cc2OC(C)C)S(C)(=O)=O)n1	Nonstructural protein 5B			IC50	Hepatitis C virus	≤0.5 µM
O=C(O)CCC(=O)N[C@H](C(=O)N[C@@H](CCC(=O)O)C(=O)N[C@@H](CCC(=O)O)C(=O)NC1(C(=O)O)CC1)C(c1ccccc1)c1ccccc1	Nonstructural protein 3 NTPase/helicase	167 µM		inhibition	Hepatitis C virus	23%
CNC(=O)c1c(-c2ccc(F)cc2)oc2cc(C3CCCN3C(=O)NC)c(OC)cc12	Nonstructural protein 5B			IC50	Hepatitis C virus	≤0.5 µM
Cn1c(C(=O)O)cc2cc(NC(=O)C3(NC(=O)c4ccc5c(c4)nc(-c4ccoc4)n5C4CCCCC4)CCCC3)ccc21	NS5B polymerase			IC50	Hepatitis C virus	<0.5 µM
CC[C@@H](C=O)NC(=O)[C@@H]1C[C@@H](OC(=O)Nc2ccccc2C(=O)CO)CN1C(=O)[C@@H](NC(=O)[C@@H](NC(=O)c1cnccn1)C(C)C)C(C)C	NS3 protease			Ki	Hepatitis C virus	1–100 µM
CC(C)(C)OC(=O)N[C@H](COC(=O)Nc1ccsc1-c1nc(C(=O)O)c(O)c(=O)[nH]1)c1ccccc1	HCV polymerase			IC50	Hepatitis C virus	<25 µM
CCOC(=O)C1CCN(c2nc(Nc3ccc4[nH]ncc4c3)nc(OC)n2)CC1	DNA polymerase	0.1 µg/mL		inhibition	Hepatitis B virus	36%
O=C(O)CC1(CC(=O)Nc2ccsc2-c2nc(C(=O)O)c(O)c(=O)[nH]2)CCCC1	HCV polymerase			IC50	Hepatitis C virus	<25 µM
C=CCN(C(=O)c1ccc(C)cc1)c1cc(-c2ccccc2)sc1C(=O)O	NS3 ATPase			IC50	Hepatitis C virus	<5 µM
C=C[C@H]1C[C@@]1(NC(=O)[C@@H]1C[C@@H](Oc2cc(C3CC3)nc3cc(OC)ccc23)CN1C(=O)[C@@H](NC(=O)OC(C)(C)C)C(C)(C)C)C(=O)NS(=O)(=O)C1(CC2CC2)CC1	NS3/NS4A protease		BMS	IC50	Hepatitis C virus	<0.05 µM
CC[C@@H](C=O)NC(=O)[C@@H]1C[C@@H](OC(=O)Nc2cccc3ccccc23)CN1C(=O)[C@@H](NC(=O)[C@@H](NC(=O)c1cnccn1)C(C)C)C(C)C	NS3 protease			Ki	Hepatitis C virus	1–100 µM
CC(C)c1c(-c2ccc(OCc3ccccc3)cc2)cnc2cc(C(=O)O)nn12	RNA-dependent RNA polymerase			IC50	Hepatitis C virus	>10 µM
Cc1ccccc1S(=O)(=O)Nc1cc(-c2cccc(N)c2)sc1C(=O)O	NS3 ATPase			IC50	Hepatitis C virus	5–20 µM
COc1nc(Nc2ccc3[nH]ncc3c2)nc(NC2CC2)n1	DNA polymerase	0.1 µg/mL		inhibition	Hepatitis B virus	20%
Cc1c(C(=O)N[C@H](C)C(=O)Nc2ccc(/C=C/C(=O)O)cc2)ccc2c1nc(-c1ccoc1)n2C1CCCCC1	NS5B polymerase			IC50	Hepatitis C virus	0.5–5 µM
O=C(O)c1nc(-c2cccc(CS(=O)(=O)c3ccc(Cl)cc3)c2)[nH]c(=O)c1O	HCV polymerase			IC50	Hepatitis C virus	<100 µM
C[C@@H]1CCCC[C@H]1n1c(-c2ccccn2)nc2cc(C(=O)NC3(C(=O)Nc4ccc(/C=C/C(=O)O)cc4)CCCC3)ccc21	NS5B polymerase			IC50	Hepatitis C virus	0.5–5 µM
COc1ccc(-c2cc(-c3cccc(Cl)c3)nc3cc(C(=O)O)nn23)cc1Cl	RNA-dependent RNA polymerase			IC50	Hepatitis C virus	>10 µM
O=C(O)CCC(=O)N[C@H](C(=O)N[C@@H](CCC(=O)O)C(=O)N[C@@H](Cc1ccccc1)C(=O)N[C@@H](CS)C(=O)O)C(c1ccccc1)c1ccccc1	Nonstructural protein 3 NTPase/helicase			IC50	Hepatitis C virus	>16.7 µM
Cc1ccccc1NC(=O)Nc1cccc(-c2nc(C(=O)O)c(O)c(=O)[nH]2)c1	HCV polymerase			IC50	Hepatitis C virus	<100 µM
CC(C)C[C@H](NC(=O)[C@H](CCC(N)=O)NC(=O)[C@@H](NC(=O)CCC(=O)O)C1CCCCC1)C(=O)N[C@@H](CS)C(=O)O	Nonstructural protein 3 NTPase/helicase	16.7 µM		inhibition	Hepatitis C virus	71%
COc1nc(Nc2ccc3cn[nH]c3c2)nc(NN2CCOCC2)n1	DNA polymerase	0.1 µg/mL		inhibition	Hepatitis B virus	44%
O/N=C\c1cnn2c(C3CCCCC3)c(-c3ccc(OCc4ccccc4)cc3)cnc12	RNA-dependent RNA polymerase			IC50	Hepatitis C virus	>10 µM
C=CC1CC1(NC(=O)[C@@H]1C[C@@H](Oc2cc(-c3ccccc3)nc3cc(OC)ccc23)CN1C(=O)[C@@H](NC(=O)OC(C)(C)C)C(C)(C)C)C(=O)NS(=O)(=O)C1([Si](C)(C)C)CC1	NS3/NS4A protease		BMS	IC50	Hepatitis C virus	<0.05 µM
O=C(O)/C=C/c1ccc(NC(=O)C2(NC(=O)c3ccc4c(c3)nc(-c3ccoc3)n4C3C[C@H]4CC[C@@H]3C4)CCCC2)cc1	NS5B polymerase			IC50	Hepatitis C virus	<0.5 µM
Cc1ccccc1S(=O)(=O)Nc1cc(-c2ccc3[nH]ccc3c2)sc1C(=O)O	NS3 ATPase			IC50	Hepatitis C virus	5–20 µM
CCC(C)[C@H](NC(=O)[C@@H](NC(=O)CCC(=O)O)C1CCCCC1)C(=O)N[C@@H](CCC(=O)O)C(=O)NC1(C(=O)O)CC1	Nonstructural protein 3 NTPase/helicase			IC50	Hepatitis C virus	>83.5 µM
C[C@@H](NC(=O)c1ccc2c(c1)nc(-c1ccoc1)n2C1CCCCC1)C(=O)Nc1ccc(SCC(=O)O)cc1	NS5B polymerase			IC50	Hepatitis C virus	0.5–5 µM
O=C(Nc1ccccc1-c1nc(C(=O)O)c(O)c(=O)[nH]1)NC1CCCCC1	HCV polymerase			IC50	Hepatitis C virus	<100 µM
CCOc1ccc(-c2cc(NS(=O)(=O)c3ccccc3C)c(C(=O)O)s2)cc1	NS3 ATPase			IC50	Hepatitis C virus	<5 µM
COc1nc(Nc2ccc3cn[nH]c3c2)nc(N2CCN(CCO)CC2)n1	DNA polymerase			IC50	Hepatitis B virus	>1 µg/mL
O=C(O)c1cc2nc(-c3ccc(Cl)cc3Cl)cc(-c3ccsc3)n2n1	RNA-dependent RNA polymerase			IC50	Hepatitis C virus	>10 µM
CC(C)(C)N(C(=O)c1ccc(Cl)cc1Cl)c1cc(-c2ccccc2)sc1C(=O)O	NS3 ATPase			IC50	Hepatitis C virus	<5 µM
CC[C@@H](C=O)NC(=O)[C@@H]1C[C@@H](OCc2ccccc2)CN1C(=O)[C@@H](NC(=O)c1cccc(Oc2ccccc2)c1)C(C)C	NS3 protease			Ki	Hepatitis C virus	1–100 µM
CNC(=O)c1c(-c2ccc(F)cc2)oc2cc(N(C)S(C)(=O)=O)c(OCC(=O)c3ccc(F)cc3)cc12	Nonstructural protein 5B			IC50	Hepatitis C virus	≤0.5 µM
CCC[C@]1(CC(=O)O)OCCc2c1[nH]c1c(C)ccc(C#N)c21	NS5B polymerase		BB7 genotype 1B	IC50	Hepatitis C virus	0.4 µM
CC[C@H](C)[C@H](NC(=O)[C@H](CC(C)C)NC(=O)CCC(=O)O)C(=O)N[C@@H](CC1CCCCC1)C(=O)NC1(C(=O)O)CC1	Nonstructural protein 3 NTPase/helicase	167 µM		inhibition	Hepatitis C virus	7–19%
C[C@@H](NC(=O)c1ccc2c(c1)nc(-c1ccccn1)n2C1CCCCC1)C(=O)Nc1ccc(/C=C/C(=O)O)cc1	NS5B polymerase			IC50	Hepatitis C virus	<0.5 µM
FC(F)(F)Oc1cccc(COc2cccc(-c3cnc4c(-c5nn[nH]n5)cnn4c3C3CCCCC3)c2)c1	RNA-dependent RNA polymerase			IC50	Hepatitis C virus	1–10 µM
CNC(=O)c1c(-c2ccc(F)cc2)oc2cc(N(CS(C)(=O)=O)OC)c(OCc3cccc(C#N)c3)cc12	Nonstructural protein 5B			IC50	Hepatitis C virus	≤0.5 µM
O=C(O)CCC(=O)N[C@H](C(=O)N[C@@H](CCC(=O)O)C(=O)N[C@@H](CCC(=O)O)C(=O)N[C@@H](CS)C(=O)O)C1CCCCC1	Nonstructural protein 3 NTPase/helicase	16.7 µM		inhibition	Hepatitis C virus	86%
O=C(O)c1cc2nc(-c3ccc(Oc4ccccc4)cc3)cc(-c3cccc(F)c3)n2n1	RNA-dependent RNA polymerase			IC50	Hepatitis C virus	>10 µM
CCC(C)[C@H](NC(=O)[C@H](CC(C)C)NC(=O)CCC(=O)O)C(=O)N[C@@H](CC1CCCCC1)C(=O)N[C@@H](CS)C(=O)O	Nonstructural protein 3 NTPase/helicase	167 µM		inhibition	Hepatitis C virus	91%
C=CC1CC1(NC(=O)[C@@H]1C[C@@H](Oc2cc(-c3ccccc3)nc3cc(OC)ccc23)CN1C(=O)[C@@H](NC(=O)OC(C)(C)C)C(C)(C)C)C(=O)NS(=O)(=O)C1(C(=O)Cc2ccccc2)CC1	NS3/NS4A protease		BMS	IC50	Hepatitis C virus	<0.05 µM
O=C(O)CCC(=O)N[C@H](C(=O)N[C@@H](CCC(=O)O)C(=O)N[C@H](C(=O)N[C@@H](CS)C(=O)O)c1ccc(-c2ccccc2)cc1)C(c1ccccc1)c1ccccc1	Nonstructural protein 3 NTPase/helicase			IC50	Hepatitis C virus	>16.7 µM
COc1ccc(OC)c(CNC(=O)Nc2cscc2-c2nc(C(=O)O)c(O)c(=O)[nH]2)c1	HCV polymerase			IC50	Hepatitis C virus	<25 µM
C=C[C@H]1C[C@@]1(NC(=O)[C@@H]1C[C@@H](Oc2cc(C3CC3)nc3cc(Cl)ccc23)CN1C(=O)[C@@H](NC(=O)OC(C)(C)C)C(C)(C)C)C(=O)OCC	NS3/NS4A protease		BMS	IC50	Hepatitis C virus	<0.05 µM
COCC(=O)N(Cc1cccc(Cl)c1)c1cc(-c2ccccc2)sc1C(=O)O	NS3 ATPase			IC50	Hepatitis C virus	>20 µM
CC(C)[C@H](NC(=O)[C@@H](NC(=O)CCC(=O)O)C1CCCCC1)C(=O)N[C@@H](CCC(=O)O)C(=O)NC1(C(=O)O)CC1	Nonstructural protein 3 NTPase/helicase	83.5 µM		inhibition	Hepatitis C virus	14%
C=C[C@H]1C[C@@]1(NC(=O)[C@@H]1C[C@@H](Oc2cc(-c3ccccc3)nc3cc(OC)ccc23)CN1C(=O)[C@@H](NC(=O)OC(C)(C)C)C(C)(C)C)C(=O)NS(=O)(=O)C1(Cc2ncoc2-c2ccccc2)CC1	NS3/NS4A protease		BMS	IC50	Hepatitis C virus	<0.05 µM

The first 6 rows once more:

SMILES	target	dose	strain	read-out	agent	value
CCCCC(C(=O)O)C(=O)N[C@H](C(=O)N1C[C@H](OCc2ccccc2)C[C@H]1C(=O)N[C@H](C=O)CC)C(C)C	NS3 protease			Ki	Hepatitis C virus	>100 µM
COC(=O)c1nc(-c2ccc(S(=O)(=O)Nc3ccccc3Oc3ccc(Cl)cc3Cl)cc2)[nH]c(=O)c1O	HCV polymerase			IC50	Hepatitis C virus	<50 µM
O=C(O)/C=C/c1ccc(NC(=O)C2(NC(=O)c3ccc4c(c3)nc(-c3ccco3)n4C3CCC3)CCCC2)cc1	NS5B polymerase			IC50	Hepatitis C virus	0.5–5 µM
Cc1cc(Cl)ccc1C(=O)N(c1cc(-c2ccccc2)sc1C(=O)O)C(C)C	NS3 ATPase			IC50	Hepatitis C virus	<5 µM
FC(F)(F)c1ccc(Oc2ccc(-c3cnc4c(-c5nn[nH]n5)cnn4c3C3CCCCC3)cc2)cc1	RNA-dependent RNA polymerase			IC50	Hepatitis C virus	1–10 µM
COc1nc(NCCCN2CCCC2=O)nc(Nc2ccc3[nH]ncc3c2)n1	DNA polymerase	1 µg/mL		inhibition	Hepatitis B virus	60%